# Mutational tolerance of the Zika virus NS2B-NS3 protease

Source: Ni et al. 2025 (doi:10.1038/s41467-025-63602-z), supplementary data.

Protein: NS2B and the protease part of NS3 of Zika virus strain MR766. Positions count along the chain below; NS2B spans 2-131 and NS3 starts at 132.
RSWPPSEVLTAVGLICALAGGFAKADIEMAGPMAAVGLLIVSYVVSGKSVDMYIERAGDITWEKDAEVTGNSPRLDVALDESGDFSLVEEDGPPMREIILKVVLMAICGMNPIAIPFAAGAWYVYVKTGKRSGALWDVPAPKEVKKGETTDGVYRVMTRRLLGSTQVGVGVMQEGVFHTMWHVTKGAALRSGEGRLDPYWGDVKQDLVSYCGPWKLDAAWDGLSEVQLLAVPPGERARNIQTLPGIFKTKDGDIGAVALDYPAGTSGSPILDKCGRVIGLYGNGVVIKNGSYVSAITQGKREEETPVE

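Mutant virus pools were grown in human Huh-7.5 cells. Deep sequencing gave the change in frequency of each mutant relative to wild type, averaged over three replicate libraries (two for positions 207-308). The aim was to find sites where inhibitor-binding pockets cannot change.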

Values are log2 effects on growth: 0 is wild type, lower means poorer growth. Each entry names the wild-type residue, its position and the residue put in its place. This list holds changes to proline only. Six mutants with high scores were retested singly and none clearly outgrew wild type, so positive values are not proof of better growth.

E67P read 0.03. For V68P the result was -6.82. With T69P the assay gave -7.63. G70P read -6.55. With N71P the assay gave -6.68. For S72P the result was -6.38. For R74P the result was -7.47. For L75P the result was -5.93. D76P gave -6.25.

V77P gave -7.44. For A78P the result was -7.10. L79P read -7.79. D80P gave -7.38. E81P read -7.47. S82P read -7.89. For G83P the result was -7.52. D84P read -7.27. With F85P the assay gave -6.50.

S86P gave -6.17. For L87P the result was -7.38. V88P gave -6.86. E89P gave -3.05. For E90P the result was -0.10. With D91P the assay gave -2.03. G92P gave -6.71. M95P gave -3.22. For R96P the result was -3.67.

For E97P the result was -6.84. With I98P the assay gave -7.39. I99P gave -6.55. For L100P the result was -6.91. With K101P the assay gave -7.09. V102P read -7.67. With V103P the assay gave -6.56. L104P gave -4.82. For M105P the result was -6.11.

For A106P the result was -6.28. With I107P the assay gave -6.07. C108P gave -7.25. G109P gave -6.49. With M110P the assay gave -6.61. For N111P the result was -6.63. For I113P the result was -5.96. For A114P the result was -7.52. I115P read -6.65.

With F117P the assay gave -5.69. A118P read -6.71. A119P read -6.92.

Extract of 4 entries:

mutation	effect (log2)
A114P	-7.52
V77P	-7.44
A118P	-6.71
V88P	-6.86

The authors count -1 or higher as tolerated. Position 1 is the last residue of NS2A. Positions 1-103, 104-206 and 207-308 were made and measured as separate libraries.